Substitutions are numbered along the chain they refer to. The list shows a part of the results. Env chains of viruses from a treatment-interruption trial, translated from the printed DNA. IC50 / IC80 of two broadly neutralizing antibodies; lower = more sensitive virus; >50 µg/ml means not reached and <0.001 µg/ml is below the lowest dose. No active / inactive call.
B1: HIV-1 Env, rebound clone, antibody arm (protein)
chain: MKVRGMKRNYQHLWGWGTMLLLWMIIMCKAAGNLWVTVYYGVPVWRDAETTLFCASDAKAYDKEVHNVWATHACVPTDPNPQEVRLENVTENFNMWENNMVEQMQTDIISLWDQSLKPCVKLTPLCVTLECTEPKLNSSTNNNSLSSTSNNSQYEEMKNCSFNMTTELRDKQKKVYSLFYKLDIVETDNNSSRYRLINCNMSTLTQACPKVTFEPIPIYYCAPAGFAILKCNDPQFNGTGPCTNVSTVQCTHGIKPVVSTQLLLNGSLAKEQVMIRSKNITDNSKTIIVQLKKPVNITCIRPGNNTRTSIRIGPGQAFYATGEITGDIRKAHCNVSRAEWNRTLQEISTQLQGYFNNKTIIFKNSSGGDLEVTTHSFNCGGEFFYCNTTKLFNSTWYGNETVINGTEASENITLQCRIKQIINMWQRVGQAMYAPPIRGEIRCESNITGLLLTRDGGGGNSSNNETFRPTGGDMRDNWRSELYKYKVVQVEPIGIAPTPAKRRVVEREKRAVGLGAAFLGFLGAAGSTMGAASLTLTVQARQLLSGIVQQQSNLLRAIEAQQHLLKLTVWGIKQLQARVLAVERYLRDQQLLGIWGCSGKLICTTAVPWNSSWSNKSYKDIWDNMTWMQWDKEVLNYTSIIYSLLEESQNQQEKNEQDLLALDKWASLWSWFDISKWLWYIKIFIMIVGGLIGLRIVFTVLSIINRVRQGYSPLSLQTLTPHPEEPDRPGRINEEGGEQDKGRSIRLVNGFLALAWDDLRSLCLFSYHRLRDFISIAARTVELLGRSSLKGLRLGWEGLKYLGNLLGYWSRELKNSAINLIDTIAIAVAGWTDRVIEIVQGSCRAIRNIPRRIRQGAEKALQ
B2: HIV-1 Env, rebound clone, antibody arm (protein)
chain: B1 chain with L22F, N141S, M201T, A532V, S667G
B3: HIV-1 Env, rebound clone, antibody arm (protein)
chain: B1 chain with L22F, N141S, M201T, A778T

target: antibody 10-1074; assay: neutralization IC50; higher = virus less sensitive to the antibody
Experimental: (§1)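 Pseudovirus bearing the Env chain mixed with antibody, from 50 µg/ml in fivefold dilutions, on TZM-bl reporter cells, in duplicate.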

Binder | neutralization IC50
B1 | 0.362 mg/L
B2 | 0.076 mg/L
B3 | 0.213 mg/L

target: antibody 3BNC117; assay: as above
Experimental: as §1

Binder | neutralization IC50
B1 | 0.108 mg/L
B2 | 0.043 mg/L
B3 | 0.08 mg/L

target: antibody 10-1074; assay: neutralization IC80; higher = virus less sensitive to the antibody
Experimental: as §1

Binder | neutralization IC80
B1 | 2.83 mg/L
B2 | 0.559 mg/L
B3 | 2.38 mg/L

target: antibody 3BNC117; assay: as above
Experimental: as §1

Binder | neutralization IC80
B1 | 0.231 mg/L
B2 | 0.094 mg/L
B3 | 0.2 mg/L
